# Sequence variants of PSTVd loop 15 after infection

PSTVd intermediate strain, loop 15: wild type GGAAACCGCUACUAC, pool pattern GGAAACCGNNNNNNC; upper and lower strand joined, each 5' to 3', the first 7 letters being the upper strand, closing pairs included.

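Three N. benthamiana plants were inoculated with the whole mutant pool. Samples came from the inoculated region at 5 days, the leaf margin at 10 and upper systemic leaves at 12.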

Values are reads per thousand in the sample; higher means more abundant, 0 means not found. Each value is the mean of three plants. "Pool" is the share in the plasmid pool used as inoculum, on the same scale. The inoculated region was read from the minus strand, the other sites from the plus strand. IR is the inoculated region, LM the leaf margin, Sys the systemic leaves. Sequences that differ at fixed positions probably stem from PCR or sequencing errors, and defective variants can be carried along by functional ones.

sequence	pool	IR	LM	Sys
GGAAACCGAACCACC	0.208	0.164	0.0121	0
GGAAACCGAAGGCUC	0.192	0.107	0.00668	0
GGAAACCGAAUACGC	0.288	0.132	0	0
GGAAACCGACCCGGC	0.240	0.0741	0.00539	0
GGAAACCGACUAUUC	0.144	0.142	0.0148	0
GGAAACCGAGAAUCC	0.288	0.134	0	0
GGAAACCGAGACUUC	0.256	0.287	0.138	0.0534
GGAAACCGAGAUAAC	0.256	0.361	0.125	0.0161
GGAAACCGAGCAGGC	0.128	0.0904	0.0262	0
GGAAACCGAGCUUAC	0.272	0.260	0.101	0.0743
GGAAACCGAGGAGGC	0.176	0.111	0.00742	0
GGAAACCGAGUGUAC	0.240	0.413	0.0659	0.0442
GGAAACCGAUGACCC	0.272	0.144	0.0187	0
GGAAACCGCAAAACC	0.304	0.0831	0.0195	0
GGAAACCGCAUGUCC	0.176	0.0684	0.00668	0
GGAAACCGCCAGUUC	0.288	0.418	0.162	0.0635
GGAAACCGCGAAUCC	0.272	0.340	0.100	0.0161
GGAAACCGCGACAGC	0.288	0.0677	0	0
GGAAACCGCGGAUCC	0.176	0.101	0	0
GGAAACCGCGGGUCC	0.208	0.110	0.0128	0
GGAAACCGCUAAGCC	0.224	0.0569	0.0262	0
GGAAACCGCUACUAC	33.9	187	727	873
GGAAACCGCUCGUAC	0.256	0.446	0.102	0.0511
GGAAACCGCUCUCUC	0.304	0.0648	0.0108	0
GGAAACCGCUCUUAC	0.192	0.336	0.160	0.0711
GGAAACCGCUGUCUC	0.288	0.0860	0.00668	0.00537
GGAAACCGCUGUUCC	0.272	0.0982	0.0175	0
GGAAACCGCUUAGGC	0.160	0.0894	0	0
GGAAACCGGACGGAC	0.224	0.152	0.0148	0
GGAAACCGGCGCGGC	0.160	0.140	0.0262	0
GGAAACCGGGGUACC	0.272	0.125	0.0134	0
GGAAACCGGGUUCUC	0.208	0.123	0.0134	0
GGAAACCGGUAAUAC	0.0800	0.288	0.123	0.0462
GGAAACCGGUUAGCC	0.288	0.0825	0.0134	0.0107
GGAAACCGUAAAGGC	0.192	0.132	0.00539	0
GGAAACCGUAAUAUC	0.272	0.281	0.121	0.0489
GGAAACCGUCAGGCC	0.256	0.0750	0	0.0107
GGAAACCGUCGCCUC	0.352	0.0838	0.0128	0
GGAAACCGUCUGGGC	0.224	0.102	0.00539	0
GGAAACCGUGAACAC	0.240	0.327	0.125	0.0559
GGAAACCGUGAUGAC	0.240	0.0859	0.00539	0
GGAAACCGUGCAUGC	0.160	0.0667	0	0
GGAAACCGUGCGGUC	0.192	0.104	0	0
GGAAACCGUGUGGAC	0.352	0.0861	0.00668	0
GGAAACCGUUAAACC	0.208	0.107	0.0134	0
GGAAACCGUUAGCAC	0.176	0.292	0.133	0.0430

For reference, wild type rose from 33.9 per thousand in the pool to 202, 200, 159 (inoculated region), 724, 746, 710 (leaf margin) and 856, 883, 880 (systemic leaves). With 43,870-66,106 reads a sample, very low values are single reads.

Data from the supplement of Wu et al. 2024, doi:10.1371/journal.ppat.1012142.